The record followed here is ChEMBL document CHEMBL5149972, “Novel Antimalarial Tetrazoles and Amides Active against the Hemoglobin Degradation Pathway in Plasmodium falciparum” (J Med Chem, 2021).

Holding throughout (format): functional
Experiment [1] in a line: Fold resistance, ratio of EC50 for antiplasmodial activity against lab-derived ELQ300 resistant Plasmodium falciparum Dd2-PfCytB mutant infected in human RBC to EC50 for antiplasmodial activity against chloroquine and pyrimethamine resistant Plasmodium falciparum Dd2 infected in human RBC.
Experiment [2] is described as follows: Fold resistance, ratio of EC50 for antiplasmodial activity against lab-derived DSM265 resistant Plasmodium falciparum Dd2-PfDHODH mutant infected in human RBC to EC50 for antiplasmodial activity against chloroquine and pyrimethamine resistant Plasmodium falciparum Dd2 infected in human RBC.
The nature of experiment [3]: Fold resistance, ratio of EC50 for antiplasmodial activity against lab-derived KAF156 resistant Plasmodium falciparum Dd2-Pfcarl mutant infected in human RBC to EC50 for antiplasmodial activity against chloroquine and pyrimethamine resistant Plasmodium falciparum Dd2 infected in human RBC.
Experiment [4] can be described thus: Fold resistance, ratio of EC50 for antiplasmodial activity against lab-derived MMV390048 resistant Plasmodium falciparum Dd2-Pfpi4K mutant infected in human RBC to EC50 for antiplasmodial activity against chloroquine and pyrimethamine resistant Plasmodium falciparum Dd2 infected in human RBC.
A short description of experiment [5]: Fold resistance, ratio of EC50 for antiplasmodial activity against piperaquine and pyrimethamine resistant Plasmodium falciparum RF12 infected in human RBC to EC50 for antiplasmodial activity against asexual blood stage Plasmodium falciparum 3D7 infected in human RBC.
A short description of experiment [6]: Fold resistance, ratio of EC50 for antiplasmodial activity against chloroquine resistant Plasmodium falciparum Dd2-Dd2 mutant replaced with recombinant Dd2 sequence at endogenous pfcrt Dd2 locus infected in human RBC to EC50 for antiplasmodial activity against chloroquine resistant Plasmodium ….
Experiment [7] in a line: Fold resistance, ratio of EC50 for antiplasmodial activity against chloroquine and piperaquine resistant Plasmodium falciparum Dd2-M343L mutant replaced with endogenous pfcrt locus with the recombinant Dd2 sequence and the PPQ resistance-conferring M343L at endogenous pfcrt Dd2 locus infected in ….

Consider `Cc1ccccc1-n1nnnc1C(c1cncnc1)N(Cc1cccc(C(F)(F)F)c1)C1CC1` (racemic), for which the Ratio was found to be 1.1 in experiment [1]; 1.1 in experiment [2]; 1.1 in experiment [3]; 1.1 in experiment [4]; 2.8 in experiment [5]; 0.5 in experiment [6]. Also, the Ratio in experiment [7] turned out to be 0.19.
